These results are taken from article PMC2676509, “Intrinsic Thermal Sensing Controls Proteolysis of Yersinia Virulence Regulator RovA” (2009).

The assay concerns the target RovA (Y. pseudotuberculosis).

For orientation: stoichiometry N means the number of molecules, sites or subunits per partner or assembly. RovA registered a stoichiometry N of 2.
